Compound potency records, mixed from different reports. Data source: NIAID ChemDB in PubChem.

All rows: tests on isolated targets; species: HIV-1; target: Integrase; measure: IC50

Two numbers with a dash give a range or band.

SMILES	strain	mutations	read by	value
N#C/C(=C\c1ccc(O)c(O)c1)C(=O)OCc1ccccc1COC(=O)/C(C#N)=C/c1ccc(O)c(O)c1			3′ processing / substrate cleavage	3 µM
CC(=O)N1CCCC(n2c(=O)c(O)c3n(c2=O)CCN(Cc2ccc(F)cc2)C3=O)C1			strand transfer	<10 µM
CC1(C)c2nc(C(=O)NCc3ccc(F)cc3)c(O)c(=O)n2CCN1CC(=O)N1CCCC1			ELISA	<10 µM
N#C/C(=C\c1cc(O)c(O)c(O)c1)C(N)=O			3′ processing / substrate cleavage	10–100 µM
CN(C)C(=O)C(=O)N1CCc2nc(C(=O)NCc3ccc(F)cc3)c(O)c(=O)n2CC1			ELISA	<10 µM
CC(C)n1c(=O)c(O)c2n(c1=O)C(CCN(C)Cc1ccccc1)CN(Cc1ccc(F)cc1)C2=O			strand transfer	<10 µM
O=P(O)(O)C(O)(Cc1ccc(Cl)c(Cl)c1)P(=O)(O)O			3′ processing / gel	7 µM
COc1cccc2c1c(/C(O)=C/C(=O)C(=O)O)cn2Cc1ccccc1F.COc1cccc2c1c(/C(O)=C/C(=O)C(=O)O)cn2Cc1ccccc1F.[Mg+2].[Mg+2]	IIIB		3′ processing / AlphaScreen	0.94 µM
CN(Cc1cccc(Cl)c1)C(=O)/C=C(\O)C(=O)O			strand transfer	<70 µM
O=C1/C(=C/c2cc(O)c(O)c(O)c2)CC(C(=O)O)C/C1=C\c1cc(O)c(O)c(O)c1			disintegration	1.2 µM
CC(=O)C(=O)Nc1cn2ccn(Cc3cccc(Cl)c3)c(=O)c2c(O)c1=O			ELISA	<0.01 µM
O=C(O)/C(O)=C/C(=O)N(Cc1ccc(F)cc1)Cc1ccc(F)cc1			strand transfer	<70 µM
CC1(C)CN(Cc2ccc(F)cc2)C(=O)c2c(O)c(=O)c(-c3ccccn3)cn21			ELISA	0.1–1 µM
O=C1c2ccc3c(c2C(=O)N1Cc1ccccc1)c1ccccc1n3-c1ccccc1			ELISA / strand transfer / luminescence	>100 µM
O=C(/C=C/c1ccc(O)c(O)c1)Oc1cccc2c(N=C=S)cccc12			3′ processing	2 µM
O=c1c(Sc2ccccc2)cn2ccn(Cc3cccc(Cl)c3)c(=O)c2c1O			ELISA	0.01–0.1 µM
CN(C)CCN1C(=O)c2ccc3[nH]c4cc5c(cc4c3c2C1=O)OCO5			ELISA / strand transfer / luminescence	10.68 µM
O=C(/C=C/c1ccc(O)c(O)c1)Oc1ccc2c(N=C=S)cccc2c1			3′ processing	3 µM
CN(C)CCN1C(=O)c2cc(-c3ccccc3)c3c(c2C1=O)c1ccccc1n3C			ELISA / strand transfer / luminescence	57 µM
CN1Cn2c(nc(C(=O)NCc3ccc(F)cc3)c(O)c2=O)C1(C)C			ELISA	<10 µM
CC(C)(C)c1ccc(-c2cncn2C2CCCCC2)cc1			strand transfer / luminescence	14.6 µM
O=C(NCc1ccc(F)cc1)c1nc2n(c(=O)c1O)CCN(Cc1ccccc1)CC2			ELISA	<10 µM
N#C/C(=C\c1ccc(O)c(O)c1)C(=O)NC1CCC(CC2CCC(NC(=O)/C(C#N)=C/c3ccc(O)c(O)c3)CC2)CC1			disintegration	>12 µM
Cc1cc2c(c3c4ccccc4n(C)c13)C(=O)N(CCN(C)C)C2=O			ELISA / strand transfer / luminescence	11.88 µM
CN(Cc1ccccc1F)C(=O)/C=C(\O)C(=O)O			strand transfer	<70 µM
Oc1ccc(/C=C/c2ccc(O)c(O)c2)cc1O			3′ processing / substrate cleavage	5–10 µM
O=C(/C=C/c1ccc(O)c(O)c1)OCCc1ccccc1		C65S	3′ processing	11 µM
CCOC(=O)CC1C/C(=C\c2cc(O)c(O)c(O)c2)C(=O)/C(=C/c2cc(O)c(O)c(O)c2)C1			disintegration	1.6 µM
CC(=O)c1cc2cc(Sc3ccccc3)c([N+](=O)[O-])cc2nc1C			3′ processing / gel	>100 µM
Cc1nnc(C(=O)N(C)C2CN(C)CCn3c2nc(C(=O)NCc2ccc(F)cc2)c(O)c3=O)o1			ELISA	<10 µM
COc1cccc2c1c(/C(O)=C/C(=O)C(=O)O)cn2Cc1cc(F)ccc1F.COc1cccc2c1c(/C(O)=C/C(=O)C(=O)O)cn2Cc1cc(F)ccc1F.[Mg+2].[Mg+2]	IIIB		strand transfer / AlphaScreen	0.05 µM
O=P(O)(O)C(CNCCc1ccccc1)P(=O)(O)O			3′ processing / gel	>100 µM
CN(C)CCN1C(=O)c2cc(-c3ccccc3)c3[nH]c4ccc(O)cc4c3c2C1=O			ELISA / strand transfer / luminescence	50.64 µM
O=C(/C=C(\O)C(=O)O)NCc1ccc(Cl)cc1			strand transfer	<70 µM
CSCC1NCCn2c1nc(C(=O)NCc1ccc(F)cc1)c(O)c2=O			ELISA	<10 µM
CCCCn1cncc1-c1ccc(C(C)(C)C)cc1			strand transfer / luminescence	22.4 µM
COc1cccc2c1c(/C(O)=C/C(=O)C(=O)O)cn2Cc1ccc(F)cc1.COc1cccc2c1c(/C(O)=C/C(=O)C(=O)O)cn2Cc1ccc(F)cc1.[Mg+2].[Mg+2]	IIIB		3′ processing / AlphaScreen	1 µM
CC(C)(C)C(=O)c1cn2c(c(O)c1=O)C(=O)N(Cc1cccc(Cl)c1F)CC2			ELISA	0.01–0.1 µM
O=C1c2c(O)c(=O)n(Cc3cscn3)c(=O)n2CCN1Cc1ccc(F)cc1			strand transfer	<10 µM
COc1ccc2c(c1)c1c3c(ccc1n2C)C(=O)N(CCN(C)C)C3=O			ELISA / strand transfer / luminescence	4.42 µM
N#C/C(=C\c1ccccc1)S(=O)(=O)/C(C#N)=C/c1ccc(O)c(O)c1			3′ processing / substrate cleavage	4.7 µM
CC(C)n1c(=O)c(O)c2n(c1=O)CCN(Cc1ccccc1C#N)C2=O			strand transfer	<10 µM
CC(=O)c1cc2cc([N+](=O)[O-])c([N+](=O)[O-])cc2nc1C			3′ processing / gel	>100 µM
CC(C)(C)NS(=O)(=O)c1ccccc1-c1cccc(C(=O)Nc2ccc(CCC(=O)O)cc2)c1		T174I	strand transfer / fluorescence	0.251 µM
COc1cccc(-c2cncn2C2CCCCC2)c1			strand transfer / luminescence	21.9 µM
O=C(O)/C(O)=C/C(=O)N(CCCc1ccccc1Cl)Cc1ccc(F)cc1			strand transfer	<70 µM
CN(C(=O)c1cn2ccn(Cc3cccc(Cl)c3)c(=O)c2c(O)c1=O)S(C)(=O)=O			ELISA	<0.01 µM
O=C1/C(=C/c2cc(O)c(O)c(O)c2)CNC/C1=C\c1cc(O)c(O)c(O)c1			disintegration	0.5 µM
Cc1ccc(CN(C(=O)/C=C(\O)C(=O)O)c2ccc(Cl)cc2)cc1			strand transfer	<70 µM
CNC(=O)CN1CCn2c(nc(C(=O)NCc3ccc(F)cc3)c(O)c2=O)C1(C)C			ELISA	<10 µM
Cc1cc2c(c3c1[nH]c1ccc(O)cc13)C(=O)N(CCN(C)C)C2=O			ELISA / strand transfer / luminescence	7.94 µM
O=C(/C=C/c1ccc(O)c(O)c1)OCCc1ccccc1N=C=S		C56S	3′ processing	23 µM
CN1CCn2c(nc(C(=O)NCc3ccc(F)cc3)c(O)c2=O)C1			ELISA	<10 µM
CN(C)CCN1C(=O)c2ccc3[nH]c4cc(O)c(O)cc4c3c2C1=O			ELISA / strand transfer / luminescence	17.37 µM

A second listing of 5 rows from above:

| SMILES | strain | mutations | read by | value |
|---|---|---|---|---|
| CN(Cc1cccc(Cl)c1)C(=O)/C=C(\O)C(=O)O |  |  | strand transfer | <70 µM |
| CN(C)CCN1C(=O)c2ccc3[nH]c4cc(O)c(O)cc4c3c2C1=O |  |  | ELISA / strand transfer / luminescence | 17.37 µM |
| O=C(O)/C(O)=C/C(=O)N(CCCc1ccccc1Cl)Cc1ccc(F)cc1 |  |  | strand transfer | <70 µM |
| CC1(C)c2nc(C(=O)NCc3ccc(F)cc3)c(O)c(=O)n2CCN1CC(=O)N1CCCC1 |  |  | ELISA | <10 µM |
| O=P(O)(O)C(CNCCc1ccccc1)P(=O)(O)O |  |  | 3′ processing / gel | >100 µM |

ICn: concentration for n% inhibition. An empty or dashed field is not shown. Conditions beyond the fields shown may differ between rows.